Test system: HBV replication in HepDES19 cells
Test: qPCR HBV replication inhibition assay
Assay type: cell-based, HBV genotype D
Settings: CC50/EC50
Procedure: HepDES19 cells are a HepG2 cell-line derivative that has been stably transfected with an HBV genotype D genome containing a tetracycline repressible promoter. HepDES19 cells were maintained on collagen-coated plates in Dulbecco’s modified Eagle’s medium (DMEM/F12) (Cytiva Life Sciences, Marlborough, MA, USA) supplemented with 10% fetal bovine serum (FBS), streptomycin (100 µg/mL), and penicillin (100 IU/mL), and incubated at 37 °C with 5% CO2 and saturating humidity. Cells were cultured with 1 µg/mL tetracycline to inhibit the expression of the stably integrated HBV genome, and HBV replication was activated upon removal of tetracycline from the culture medium.
HBV replication inhibition in HepDES19 cells was assessed using a strand-preferential quantitative PCR assay as previously described. HepDES19 cells were seeded in 96 well plates at 4 × 10^4 cells/well for 48 h followed by the addition of serial diluted compound with a final concentration of 1% DMSO for 72 h, after which cells were lysed, and qPCR was performed as described in Li et al.. Effective concentration 50% (EC50) values were calculated from data for the (+) polarity DNA strand data using GraphPad Prism version 10’s four-parameter log (inhibitor) versus response algorithm, with the bottom value set to zero. Three or more replicate assays were performed on different days.

First: CC(=NOCc1ccc(Cl)c(Cl)c1)c1c(C)cc(=O)n(O)c1O [Compound 30, 5-(1-(((3,4-dichlorobenzyl)oxy)imino)ethyl)-1,6-dihydroxy-4-methylpyridin-2(1H)-one]
Second: CC(=NOCc1ccc(Cl)cc1Cl)c1c(C)cc(=O)n(O)c1O [Compound 31, 5-(1-(((2,4-dichlorobenzyl)oxy)imino)ethyl)-1,6-dihydroxy-4-methylpyridin-2(1H)-one]
The SI of the first is lower: 28.2 for the first, 65.1 for the second.

First: CC(=NCc1ccccc1Cl)c1c(C)cc(=O)n(O)c1O [Compound 36, 5-(1-((2-chlorobenzyl)imino)ethyl)-1,6-dihydroxy-4-methylpyridin-2(1H)-one]
Second: CC(=NCc1ccccc1Br)c1c(C)cc(=O)n(O)c1O [Compound 33, 5-(1-((2-bromobenzyl)imino)ethyl)-1,6-dihydroxy-4-methylpyridin-2(1H)-one]
The SI of the first is higher: 19.0 for the first, 6.1 for the second.

Going from `CC(=Nc1ccccc1Br)c1c(C)cc(=O)n(O)c1O` [Compound 25, 5-(1-((2-bromophenyl)imino)ethyl)-1,6-dihydroxy-4-methylpyridin-2(1H)-one] to `CC(=Nc1ccccc1F)c1c(C)cc(=O)n(O)c1O` [Compound 21, 5-(1-((2-fluorophenyl)imino)ethyl)-1,6-dihydroxy-4-methylpyridin-2(1H)-one], the SI rises from 10.1 to 39.2.

First: CC(=NCc1cccc(F)c1)c1c(C)cc(=O)n(O)c1O [Compound 39, 5-(1-((3-fluorobenzyl)imino)ethyl)-1,6-dihydroxy-4-methylpyridin-2(1H)-one]
Second: CC(=NCc1cccc(Cl)c1)c1c(C)cc(=O)n(O)c1O [Compound 37, 5-(1-((3-chlorobenzyl)imino)ethyl)-1,6-dihydroxy-4-methylpyridin-2(1H)-one]
The SI of the first is lower: 0.7 for the first, 7.2 for the second.

First: CC(=NOCc1ccccc1I)c1c(C)cc(=O)n(O)c1O [Compound 32, 1,6-dihydroxy-5-(1-(((2-iodobenzyl)oxy)imino)ethyl)-4-methylpyridin-2(1H)-one]
Second: CC(=Nc1ccccc1Cl)c1c(C)cc(=O)n(O)c1O [Compound 23, 5-(1-((2-chlorophenyl)imino)ethyl)-1,6-dihydroxy-4-methylpyridin-2(1H)-one]
The SI of the first is lower: 30.5 for the first, 31.7 for the second.

First: CC(=Nc1c(F)cccc1F)c1c(C)cc(=O)n(O)c1O [Compound 28, 5-(1-((2,6-difluorophenyl)imino)ethyl)-1,6-dihydroxy-4-methylpyridin-2(1H)-one]
Second: CC(=Nc1ccc(F)c(F)c1)c1c(C)cc(=O)n(O)c1O [Compound 22, 5-(1-((3,4-difluorophenyl)imino)ethyl)-1,6-dihydroxy-4-methylpyridin-2(1H)-one]
The SI of the first is lower: 19.3 for the first, 112.4 for the second.

First: CC(=NCCOc1ccc(Cl)cc1)c1c(C)cc(=O)n(O)c1O [Compound 43, 5-(1-((2-(4-chlorophenoxy)ethyl)imino)ethyl)-1,6-dihydroxy-4-methylpyridin-2(1H)-one]
Second: CC(=NCc1ccc(Cl)cc1)c1c(C)cc(=O)n(O)c1O [Compound 38, 5-(1-((4-chlorobenzyl)imino)ethyl)-1,6-dihydroxy-4-methylpyridin-2(1H)-one]
The SI of the first is higher: 1.8 for the first, 1.2 for the second.

Compared with `CC(=NCc1ccc(Br)cc1)c1c(C)cc(=O)n(O)c1O` [Compound 35, 5-(1-((4-bromobenzyl)imino)ethyl)-1,6-dihydroxy-4-methylpyridin-2(1H)-one], `CC(=NCc1ccc(F)cc1)c1c(C)cc(=O)n(O)c1O` [Compound 40, 5-(1-((4-fluorobenzyl)imino)ethyl)-1,6-dihydroxy-4-methylpyridin-2(1H)-one] is lower in SI: 3.0 for the first, 0.9 for the second.

Going from `CC(=NCc1ccc(F)c(F)c1)c1c(C)cc(=O)n(O)c1O` [Compound 41, 5-(1-((3,4-difluorobenzyl)imino)ethyl)-1,6-dihydroxy-4-methylpyridin-2(1H)-one] to `CC(=NCc1cc(F)cc(F)c1)c1c(C)cc(=O)n(O)c1O` [Compound 42, 5-(1-((3,5-difluorobenzyl)imino)ethyl)-1,6-dihydroxy-4-methylpyridin-2(1H)-one], the SI falls from 2.2 to 1.1.

Going from `CC(=Nc1ccc(F)c(Cl)c1)c1c(C)cc(=O)n(O)c1O` [Compound 29, 5-(1-((3-chloro-4-fluorophenyl)imino)ethyl)-1,6-dihydroxy-4-methylpyridin-2(1H)-one] to `CC(=Nc1ccc(Cl)c(Cl)c1)c1c(C)cc(=O)n(O)c1O` [Compound 24, 5-(1-((3,4-dichlorophenyl)imino)ethyl)-1,6-dihydroxy-4-methylpyridin-2(1H)-one], the SI rises from 21.8 to 31.8.

Going from `CC(=NOCc1ccccc1Cl)C1C(=O)NC(=O)NC1=O` [Compound 45, 5-(1-(((2-chlorobenzyl)oxy)imino)ethyl)pyrimidine-2,4,6(1H,3H,5H)-trione] to `CC(=NCc1cccc(Br)c1)c1c(C)cc(=O)n(O)c1O` [Compound 34, 5-(1-((3-bromobenzyl)imino)ethyl)-1,6-dihydroxy-4-methylpyridin-2(1H)-one], the SI rises from 1.0 to 1.7.

First: CC(=Nc1cc(F)ccc1F)c1c(C)cc(=O)n(O)c1O [Compound 27, 5-(1-((2,5-difluorophenyl)imino)ethyl)-1,6-dihydroxy-4-methylpyridin-2(1H)-one]
Second: CC(=Nc1ccc(F)cc1F)c1c(C)cc(=O)n(O)c1O [Compound 26, 5-(1-((2,4-difluorophenyl)imino)ethyl)-1,6-dihydroxy-4-methylpyridin-2(1H)-one]
The SI of the first is higher: 29.7 for the first, 19.1 for the second.

Test system: HBV replication in HepDES19 cells
Test: not given
Settings: CC50/EC50; Figure 1, earlier HBV RNase H inhibitors; cited from earlier work

Compared with `C/C(=N\c1ccccc1N)c1c(C)cc(=O)n(O)c1O` [Compound 54], `COc1ccc(CON=C(C)c2c(C)cc(=O)n(O)c2O)cc1` [A24] is higher in SI: 29 for the first, 352 for the second.

Same assay, conditions: CC50/EC50; previously published compound, Table 1; cited from earlier work

In the case of `C/C(=N\c1ccccc1N)c1c(C)cc(=O)n(O)c1O` [Compound 54], the SI is listed as 22.

Same assay, conditions: CC50/EC50; previously published compound; cited from earlier work

For `C/C(=N\OCc1ccccc1F)c1c(C)cc(=O)n(O)c1O` [Compound 52], the SI is given as 281.

Same assay, conditions: CC50/EC50; previously published compounds; cited from earlier work

First: C/C(=N\OCc1cccc(Br)c1)c1c(C)cc(=O)n(O)c1O [Compound 47]
Second: C/C(=N\OCc1cccc(F)c1)c1c(C)cc(=O)n(O)c1O [Compound 53]
The SI of the first is lower: 151 for the first, 1231 for the second.

Going from `C/C(=N\OCc1ccccc1Br)c1c(C)cc(=O)n(O)c1O` [Compound 46] to `C/C(=N\OCc1ccc(Br)cc1)c1c(C)cc(=O)n(O)c1O` [Compound 48], the SI rises from 40.0 to 67.9.

Going from `C/C(=N\OCc1ccc(Cl)cc1)c1c(C)cc(=O)n(O)c1O` [Compound 51] to `C/C(=N\OCc1cccc(Cl)c1)c1c(C)cc(=O)n(O)c1O` [Compound 50], the SI falls from 130 to 42.1.

Same assay, conditions: hit compound as quoted in the text; ratio CC50 / EC50; cited from earlier work

For `C/C(=N\c1ccccc1N)c1c(C)cc(=O)n(O)c1O` [Compound 54], the SI is given as 28.7.

— publication PMC12564302, “Discovery of N-Hydroxypyridinedione-Based Inhibitors of HBV RNase H: Design, Synthesis, and Extended SAR Studies” (International Journal of Molecular Sciences, 2025)
